Anti-infective test results gathered from many reports (values: NIAID ChemDB through PubChem).

Common to all: growth or infection tests

Percent inhibition refers to the dose given; in toxicity tests it is the harm to the cells. Rows are shuffled and stem from different studies. A number after MIC or MFC names an inhibition level or a share of isolates. ECn is the concentration giving n% inhibition of infection, replication or growth. Zone: diameter of growth inhibition. An empty or dashed field is not shown.

| SMILES | agent | read-out | method | conditions | strain | dose | value |
|---|---|---|---|---|---|---|---|
| CO[C@H]1/C=C/O[C@@]2(C)Oc3c(C)c(O)c4c(O)c(c(/C=N/N5CCN(C6CCCC6)CC5)c(O)c4c3C2=O)NC(=O)/C(C)=C\C=C\[C@H](C)[C@H](O)[C@@H](C)[C@@H](O)[C@@H](C)[C@H](OC(C)=O)[C@@H]1C | Mycobacterium avium intracellulare | MIC |  |  | 9-Feb |  | 2 µg/mL |
| COc1ccc(CCn2c(C)nn(Cc3cn(CCn4cc(Cn5nc(C)n(CCc6ccc(OC)cc6)c5=O)nn4)nn3)c2=O)cc1 | Mycobacterium luteus | zone | agar diffusion |  |  | 20 mg/mL | 1.387 mm |
| CCCCCCCCCCCCN(C(=O)Nc1ccc(Cl)cc1)[C@@H](CC(=O)OCC)C1O[C@@H]2OC(C)(C)O[C@@H]2[C@H]1Oc1ccccc1 | Mycobacterium aurum | MIC |  |  |  |  | >25 µg/mL |
| NNC(=O)c1ccncc1 | Mycobacterium avium intracellulare | MIC |  |  | N-752 (HIV-) |  | 1 µg/mL |
| CC[C@H]1OC(=O)[C@H](C)[C@@H](O[C@H]2C[C@@](C)(OC)[C@@H](O)[C@H](C)O2)[C@H](C)[C@@H](O[C@@H]2O[C@H](C)C[C@H](N(C)C)[C@H]2O)[C@](C)(O)C[C@@H](C)CN(C)[C@H](C)[C@@H](O)[C@]1(C)O | Mycobacterium abscessus | MIC100 | broth dilution / visual reading |  | Clinical isolate MR313292 |  | 8 µg/mL |
| CCc1nc2ccc(Cl)cn2c1C(=O)NCc1ccc(N2CCN(c3ccc(OC(F)(F)F)cc3)[C@@H](C)C2)c(Cl)c1.Cl | Mycobacterium avium | inhibition | fluorescence |  |  | 0.009 µM | 85% |
| COc1ccc(-c2cn(CC3Cc4cn(-c5ccccc5)c5cccc(c45)C(=O)O3)nn2)cc1 | Mycobacterium spp. | EC50 | visual reading |  | MC2 6230 |  | >100 µg/mL |
| CC(C)N=C(N)/N=C(\N)NOCCCOc1cc(Cl)c(Cl)cc1Cl | Mycobacterium avium complex | MIC |  |  | 2212 |  | 16 µg/mL |
| COc1ccc(/C=N/n2c(C)nn(Cc3cn(CCCCCCCCn4cc(Cn5nc(C)n(/N=C/c6ccc(OC)cc6)c5=O)nn4)nn3)c2=O)cc1 | Mycobacterium luteus | zone | agar diffusion |  |  | 20 mg/mL | 0.6 mm |
| [2H]c1c(C([2H])([2H])[2H])c([2H])c2nc(C)c(C(=O)NCc3ccc(C4CCN(c5ccc(OC(F)(F)F)cc5)CC4)c(F)c3)n2c1[2H] | Mycobacterium avium | inhibition | fluorescence |  |  | 0.021 µM | 85% |
| CO[C@@]1(NC(=O)Cc2ccccc2)C(=O)N2C(C(=O)O)=C(COC(C)=O)CSC21 | Mycobacterium fortuitum | MIC |  |  | 1048 |  | 25 µg/mL |
| COc1ccc(CCn2c(C)nn(Cc3cn(CCCCn4cc(Cn5nc(C)n(CCc6ccc(OC)cc6)c5=O)nn4)nn3)c2=O)cc1 | Mycobacterium luteus | zone | agar diffusion |  |  | 20 mg/mL | 1.313 mm |
| C[C@@H]1CN(c2c(F)c(N)c3c(=O)c(C(=O)O)cn(C4CC4)c3c2F)C[C@H](C)N1 | Mycobacterium avium complex | MIC |  |  | N-951 (HIV+) |  | 0.5 µg/mL |
| CO[C@@]1(NC(=O)CCCC(N)C(=O)O)C(=O)N2C(C(=O)O)=C(COC(C)=O)CSC21 | Mycobacterium fortuitum | MIC |  |  | 1030-8 |  | >100 µg/mL |
| CCCCCCCc1cn(CC2Cc3cn(-c4ccccc4)c4cccc(c34)C(=O)O2)nn1 | Mycobacterium spp. | EC50 | visual reading |  | MC2 6230 |  | >100 µg/mL |
| CCCCCCCCCCCCN(C(=O)Nc1ccc(Cl)cc1)[C@@H](CC(=O)OCC)C1O[C@@H]2OC(C)(C)O[C@@H]2[C@H]1OC | Mycobacterium aurum | MIC |  |  |  |  | 25 µg/mL |
| Cc1nn(Cc2cn(CCCCCn3cc(Cn4nc(C)n(/N=C/c5cccs5)c4=O)nn3)nn2)c(=O)n1/N=C/c1cccs1 | Mycobacterium luteus | zone | agar diffusion |  |  | 20 mg/mL | 0.6 mm |
| CO[C@@]1(NC(=O)Cc2ccccc2)C(=O)N2C(C(=O)[O-])=C(CSc3nnc(C)s3)CSC21 | Mycobacterium fortuitum | MIC |  |  | 1045 |  | >100 µg/mL |
| CC[C@H]1OC(=O)[C@H](C)[C@@H](O[C@H]2C[C@@](C)(OC)[C@@H](O)[C@H](C)O2)[C@H](C)[C@@H](O[C@@H]2O[C@H](C)C[C@H](N(C)C)[C@H]2O)[C@](C)(OC)C[C@@H](C)C(=O)[C@H](C)[C@@H](O)[C@]1(C)O | Mycobacterium avium intracellulare | MIC |  |  | N-499 (HIV-) |  | 0.25 µg/mL |
| Cc1ccn2nc(C)c(C(=O)NCc3ccc(N4CCN(c5ccc(OC(F)(F)F)cc5)[C@@H](C)C4)c(F)c3)c2c1.Cl | Mycobacterium avium | inhibition | fluorescence |  |  | 0.025 µM | 85% |
| CC1(C)S[C@@H]2[C@H](NC(=O)[C@H](N)c3ccccc3)C(=O)N2[C@H]1C(=O)O | Mycobacterium luteus | zone | agar diffusion |  |  | 10 µg/mL | 1.43 mm |
| NNC(=O)c1ccncc1 | Mycobacterium kansasii | MIC100 | broth dilution | 14 d | My 235/80 |  | >250 µM |
| Cc1ccc2nc(C)c(C(=O)NCc3ccc(S(F)(F)(F)(F)F)cc3)n2c1 | Mycobacterium avium | inhibition | fluorescence |  |  | 0.11 µM | 85% |
| O=C(NNC(=O)c1ccncc1)Nc1ccc(C(F)(F)F)cc1 | Mycobacterium kansasii | MIC100 | broth dilution | 7 d | My 235/80 |  | >125 µM |
| Clc1ccc2c(c1)nc1cc(Nc3ccccc3)c(=NC3CCCCC3)cc-1n2-c1ccccc1 | Mycobacterium fortuitum | MIC |  |  | 8521 |  | 5 µg/mL |
| O=C(NNC(=O)c1ccncc1)Nc1ccc(F)c(C(F)(F)F)c1 | Mycobacterium kansasii | MIC100 | broth dilution | 14 d | My 235/80 |  | 125 µM |
| CCCCN1C(=O)N(c2ccc(F)cc2)C(=O)C[C@H]1C1OC2OC(C)(C)OC2[C@H]1Oc1ccccc1 | Mycobacterium aurum | MIC |  |  |  |  | >25 µg/mL |
| COc1ccc(Nc2nnc(-c3ccncc3)o2)cc1 | Mycobacterium kansasii | MIC100 | broth dilution | 21 d | My 235/80 |  | >125 µM |
| CO[C@@]1(NC(=O)CSCC#N)C(=O)N2C(C(=O)O)=C(CSc3nnnn3C)CS[C@@H]21 | Mycobacterium fortuitum | MIC |  |  | 1030-8 |  | 6.25 µg/mL |
| CCOC(=O)C[C@@H](C1O[C@@H]2OC(C)(C)O[C@@H]2[C@H]1OC)N(C(=O)NCc1ccccc1)C1CC1 | Mycobacterium aurum | MIC |  |  |  |  | >25 µg/mL |
| O=C1OC(Cn2cc(-c3ccccc3)nn2)Cc2cn(-c3ccccc3)c3cccc1c23 | Mycobacterium spp. | EC50 | visual reading |  | MC2 6230 |  | >100 µg/mL |
| CCCCCCCNC(=O)NNC(=O)c1ccncc1 | Mycobacterium kansasii | MIC100 | broth dilution | 14 d | My 6509/96 |  | 62.5 µM |
| CO[C@H]1/C=C/O[C@@]2(C)Oc3c(C)c(O)c4c(=O)c(c5oc6cc(N7CCN(CC(C)C)CC7)cc(=O)c6nc5c4c3=C2O)NC(=O)/C(C)=C\C=C\[C@H](C)[C@H](O)[C@@H](C)[C@@H](O)[C@@H](C)[C@H](OC(C)=O)[C@@H]1C | Mycobacterium ulcerans | MBC |  |  | Isolate 842 |  | 0.012 µg/mL |
| CCc1nc2ccc(Cl)cn2c1C(=O)NCc1ccc(N2CCN(c3ccc(OC(C)C)cc3)C(C)(C)C2)c(F)c1 | Mycobacterium avium | inhibition | fluorescence |  |  | 0.012 µM | 85% |
| CCCCc1cn(CC2Cc3cn(-c4ccccc4)c4cccc(c34)C(=O)O2)nn1 | Mycobacterium spp. | EC50 | visual reading |  | MC2 6230 |  | >100 µg/mL |
| CCCCCC(CC(=O)N1N=CCCC1C(=O)N[C@H]1COC(=O)C2C[C@@H](O)CNN2C(=O)[C@H](C)NC(=O)[C@@H](CC(C)C)NC1=O)C(=O)O | Mycobacterium aurum | MIC |  |  | SB66 |  | 6.3 µg/mL |
| O=C(NNC(=O)c1ccncc1)Nc1ccc(Cl)c(C(F)(F)F)c1 | Mycobacterium kansasii | MIC100 | broth dilution | 21 d | My 235/80 |  | 125 µM |
| CO[C@@]1(NC(=O)Cn2cnnn2)C(=O)N2C(C(=O)O)=C(CSc3nnc(C)s3)CSC21 | Mycobacterium fortuitum | MIC |  |  | 1045 |  | >100 µg/mL |
| CO[C@H]1/C=C/O[C@@]2(C)Oc3c(C)c(O)c4c(=O)c(c5oc6cc(N7CCN(CC(C)C)CC7)cc(=O)c6nc5c4c3=C2O)NC(=O)/C(C)=C\C=C\[C@H](C)[C@H](O)[C@@H](C)[C@@H](O)[C@@H](C)[C@H](OC(C)=O)[C@@H]1C | Mycobacterium avium complex | MIC |  |  | N-980 (HIV+) |  | 0.0313 µg/mL |
| COc1ccc(/C=N/n2c(C)nn(Cc3cn(CCCCn4cc(Cn5nc(C)n(/N=C/c6ccc(OC)cc6)c5=O)nn4)nn3)c2=O)cc1 | Mycobacterium luteus | zone | agar diffusion |  |  | 20 mg/mL | 1.21 mm |